This note sets out measurements from article PMC8175350, “Drug repurposing screens identify chemical entities for the development of COVID-19 interventions” (Nature Communications, 2021).

Counter-ions that a name gives are not always drawn. Like-named read-outs stand apart in the source and are kept apart here. Some results are limits rather than exact numbers.

Type in all cases: cell-based
Series [1] has as its system SARS-CoV-2. The conditions noted are these: selectivity index, uninfected HeLa-ACE2 CC50 / SARS-CoV-2 EC50.
Series [2] deals with SARS-CoV-2. Particulars: selectivity index, uninfected Calu-3 CC50 / SARS-CoV-2 EC50.
The test system of series [3] is SARS-CoV-2.

For `COC(=O)C1=C(C)NC(C)=C(C(=O)OCCN2CCN(C(c3ccccc3)c3ccccc3)CC2)C1c1cccc([N+](=O)[O-])c1` (stereo not drawn) [Manidipine (Manyper)], in the series with SARS-CoV-2 [1], the “HeLa-ACE2 SI” value is > 2.48. For the same molecule, the “Calu-3 SI” value with SARS-CoV-2 [2] is listed as > 5.45. In addition, the “TOA:HeLa-ACE2 EC50 Ratio” value in the series with SARS-CoV-2 [3] (TOA EC50 / HeLa-ACE2 EC50) is reported as 1.120.
The matching figures for `O=c1nc(NO)ccn1[C@@H]1O[C@H](CO)[C@@H](O)[C@H]1O` [N-hydroxycytidine]: > 18.13, 37.50 and 1.961.
With `Cc1c(O)cccc1C(=O)N[C@@H](CSc1ccccc1)[C@H](O)CN1C[C@H]2CCCC[C@H]2C[C@H]1C(=O)NC(C)(C)C` [Nelfinavir mesylate], the “HeLa-ACE2 SI” value with SARS-CoV-2 [1] is given as > 2.08. Further, in the series on SARS-CoV-2 [2], the “Calu-3 SI” value is given as > 26.07. Moreover, in the series with SARS-CoV-2 [3], the “TOA:HeLa-ACE2 EC50 Ratio” value was 0.965.
In the case of `COc1ccc(C[C@H](N)C(=O)N[C@H]2[C@@H](O)[C@H](n3cnc4c(N(C)C)ncnc43)O[C@@H]2CO)cc1` [Puromycin - cytotoxicity control], the “HeLa-ACE2 SI” value in the series with SARS-CoV-2 [1] was 1.37. The “Calu-3 SI” value in the series with SARS-CoV-2 [2] came out at 1.44. Further, the “TOA:HeLa-ACE2 EC50 Ratio” value with SARS-CoV-2 [3] (TOA EC50 / HeLa-ACE2 EC50) is on record as 0.659.
For the molecule `CC(C)(C)Cn1c(N)nc2ccc(-c3[nH]c(C(C)(C)C)nc3-c3ccc(F)cc3)nc21` [Ralimetinib mesylate/LY2228820, Ralimetinib mesylate], the “HeLa-ACE2 SI” value with SARS-CoV-2 [1] was 14.60. Further, the “Calu-3 SI” value in the series on SARS-CoV-2 [2] was found to be 3.60. In addition, in the series with SARS-CoV-2 [3] (TOA EC50 / HeLa-ACE2 EC50), the “TOA:HeLa-ACE2 EC50 Ratio” value is 0.420.
Consider `CNC(=O)c1cc(Oc2ccc(NC(=O)Nc3ccc(Cl)c(C(F)(F)F)c3)cc2)ccn1` [Sorafenib], for which, in the series with SARS-CoV-2 [1], the “HeLa-ACE2 SI” value is given as > 1.52. Also, in the series with SARS-CoV-2 [2], the “Calu-3 SI” value is given as < 1.02. The “TOA:HeLa-ACE2 EC50 Ratio” value in the series with SARS-CoV-2 [3] is given as 0.619.
Taken in the same sequence, the figures for `COc1cc2c(Nc3ccc(Cl)c(Cl)c3F)ncnc2cc1OC[C@@H]1C[C@@H]2CN(C)C[C@@H]2C1` [Tesevatinib, XL647, Kadmon Corporation] were > 8.46, 1.06 and 3.123.
